# Percent effect of library compounds

Values are the deposited “Percent Effect”, in %.
The record does not define 0% and 100%; most values in the screen are far below 50% and negative numbers occur (in some assays of this library far below -100).
This is part of a subset picked to be rich in strong results.
Two or more numbers in one place are separate tests of the same structure; such repeats can differ widely.
A dash means the value is not listed here; it may have been measured.

Mtb glucose medium: 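Growth of Mycobacterium tuberculosis over 3 days (7H9 medium with glucose and tyloxapol); the read-out is not stated. Concentration: 50 µM. Direction is inferred from retests: higher values go with more growth inhibition. Size under these conditions: about 69,000 compounds, about 760 of them at 50% or above in at least one test.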
Mtb cholesterol medium: 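Phenotypic screen: M. tuberculosis growth, cholesterol and DPPC medium, 4 days; the read-out is not stated. Tested at 50 µM. The record gives no direction; compounds that gave an IC50 in retests scored well above the rest, so higher reads as more growth inhibition. Size under these conditions: about 69,000 compounds, about 370 of them at 50% or above in at least one test.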

| # | SMILES | Mtb glucose medium | Mtb cholesterol medium |
|---|---|---|---|
| 1 | `COc1ccc(-n2nnc(C(=O)NCC3CCCCC3)n2)cc1` | 9.636 & 17.09 | - |
| 2 | `CNS(=O)(=O)CCNc1cc(C)nc2cc(C)nn12` | 6.683 | -0.1804 |
| 3 | `Cc1ccc(Cl)c2ccc(NC(CO)CO)nc12` | 23.76 | - |
| 4 | `O=C(NCCNc1ccc(C(F)(F)F)cn1)c1ccc(Br)cc1` | 36.76 | 28.9 |
| 5 | `Cn1cc(CCNC(=O)CCc2ccc3c(c2)OCO3)cn1` | -11.79 | - |
| 6 | `COCc1noc(Cn2ccc3ncccc3c2=O)n1` | 9.858 | - |
| 7 | `CC(C)(C)NC(=O)NC(=O)CNC(C)(C)c1ccc2c(c1)OCCO2` | 18.74 | - |
| 8 | `COc1ccc(CC(=O)NCCNS(=O)(=O)c2ccc(C)cc2)cc1` | 2.682 | - |
| 9 | `CC(C)CSCCCNC(=O)C1CCC1` | -10.33 | - |
| 10 | `COc1cccc(-n2nnc(C(=O)N3CCCC3)c2C)c1` | -10.39 | 8.633 |
| 11 | `O=C(O)C(F)(F)F.O=C(O)C(F)(F)F.[H][C@]12C[C@@H](CN3CCCC3)N(C)[C@@]1([H])CCN(C(=O)c1occc1C)C2` | - | -1.779 |
| 12 | `CCOCC(=O)NCCc1ccc(I)s1` | 10.21 | - |
| 13 | `CC(=O)N1CCCN(C(=O)c2oc(Br)cc2C)CC1` | -4.195 | - |
| 14 | `CC(C)C(O)C1CCN(c2ccnc(C(=O)NCc3ccco3)c2)CC1` (stereo unspecified) | 18.54 | - |
| 15 | `CCn1c(NCc2ccccc2)nc2c(C)nn(C)c2c1=O` | 16.54 | 14.94 |
| 16 | `[H][C@]12CC[C@]([H])(CN(Cc3cc(-c4ccccc4)no3)C1)N(CC1CCC1)C2` | 85.07 | 78.17 & 72.26 |
| 17 | `COc1ccc(CN2CCc3nc(C4CCCCN4C)ncc3C2)cc1` (stereo unspecified) | 34.93 | - |
| 18 | `Cc1ccc(C(=O)N2CCOCC2C(N)=O)c(F)c1` (stereo unspecified) | - | 7.734 |
| 19 | `CC(=O)Nc1nc(C(=O)Nc2ccc(N3CCCCC3)nc2)cs1` | -14.77 | - |
| 20 | `CSc1nsc(NC(=O)N(C)Cc2ccc3c(c2)OCO3)n1` | 26.86 | - |
| 21 | `Cc1cc(C)n(C2CN(CC(=O)N(C)Cc3ccco3)C2)n1` | -2.426 | - |
| 22 | `O=C(Cc1cccs1)Nc1cnn(C2CCOCC2)c1` | - | -0.03039 |
| 23 | `Cc1csc(N2CCN(C(=O)c3cc(Cl)c[nH]3)CC2)n1` | 27.33 | 10.73 & 8.478 |
| 24 | `[H][C@]12CC[C@]([H])(CN(Cc3ccc(F)cc3)C1)N(Cc1snnc1C)C2` | 13.29 | - |
| 25 | `CCc1nc(C2CCCN(C(=O)c3ccc(F)cc3)C2)no1` (stereo unspecified) | 14.78 | -1.099 |
| 26 | `NC1(c2nc(-c3ccccc3)cc(=O)[nH]2)CCCCC1` | -21.3 & 1.816 | -11.36 |
| 27 | `CCCC(C)(O)c1cc(C(N)=O)no1` (stereo unspecified) | -14.82 & 0.8798 | -4.677 |
| 28 | `Cc1nc(CNC(=O)Nc2ccc3c(c2)CCCC(=O)N3)sc1C` | - | 7.556 |
| 29 | `CCc1noc(CN2CCOC3(CCCC3)C2)n1` | 14.89 | - |
| 30 | `Br.COc1ccc(C(=O)CN(C2=NCCCCC2)c2ccccc2)cc1` | 35.55 | 10.32 |
| 31 | `OCC1COCCN(c2ncccc2C(F)(F)F)C1` (stereo unspecified) | 20.44 | - |
| 32 | `CCc1nc2n(n1)CC(NCc1nc(C)c(C)o1)CC2` (stereo unspecified) | - | 53.19 |
| 33 | `COCCNc1nc2c(c(NCCc3cccs3)n1)CCNCC2` | 51.03 | - |
| 34 | `Cc1cc(N2CCC(Cc3ccccc3)CC2)ncn1` | 11.19 & 20.81 | - |
| 35 | `CN1CCN(C(=O)c2cc(-c3ccco3)cs2)CC1` | 10.12 | - |
| 36 | `COCCCNC(=O)Cc1cc(-c2ccccc2)on1` | 22.42 | -5.936 |
| 37 | `CC(O)CCN(C)C(=O)Nc1cc(F)cc(Br)c1` (stereo unspecified) | 10.14 & 21.84 | -12 |
| 38 | `CC1=C(C(=O)N2CCOC(Cc3cccc(C(F)(F)F)c3)C2)OCCO1` (stereo unspecified) | 27.05 & 1.693 | - |
| 39 | `Cl.NC(CC1CCCC1)c1ccccc1` (stereo unspecified) | -26.72 | 1.854 |
| 40 | `Cl.O=S(=O)(N1CCCCC1)N1CCc2nc(C3CCNCC3)ncc2C1` | 57 | - |
| 41 | `O=C(CCc1nccs1)N1CCN(c2ccccn2)CC1` | - | 23.25 |
| 42 | `Cc1nc(CN2CCCC(CCc3ccccc3C(F)(F)F)C2)co1` (stereo unspecified) | 9.896 | 9.512 |
| 43 | `O=C(Nc1nc(-c2ccccc2)ns1)N1CCN(C(=O)C2CC2)CC1` | - | 11.67 & 6.813 |
| 44 | `CCc1[nH]c2c(CNc3cncc(C(=O)OC)n3)cc(C)cc2c1C` | -54.69 | 3.758 |
| 45 | `Cc1ccc(N2CCCC(c3[nH]ncc3Cc3ccccc3)C2)nn1` (stereo unspecified) | 28.3 | - |
| 46 | `Cc1nn(C)cc1C(=O)NCc1cc(N(C)C)nc2ccccc12` | 14.84 | 5.2 |
| 47 | `Cc1noc(C)c1CN1CC[C@H](OCC2CC2)[C@@H](Cc2ccccc2)C1` | 41.1 | - |
| 48 | `OC1CCN(Cc2cc3c(cc2Br)OCCO3)CC1` | -4.756 & -10.22 | - |
| 49 | `Clc1ccccc1CCN1CCN(c2ccc3nncn3n2)CC1` | 50.51 | - |
| 50 | `Cc1nnsc1C(=O)NCCNS(=O)(=O)c1cccs1` | -4.286 | -20.96 |
| 51 | `Cc1ccc(CCNc2nc(-c3ccncc3)nc3c2CCNCC3)o1` | 20.73 & 18.3 | - |
| 52 | `Cn1c(C2CC2)nc2c1CCN(CCOc1ccccc1C#N)C2` | -5.439 | - |
| 53 | `O=C(O)C(F)(F)F.O=C1COC2(CCN(c3ncccn3)CC2)CN1` | 14.17 | - |
| 54 | `CC(C)C(C)N(C)Cc1nnc(-c2ccco2)o1` (stereo unspecified) | - | 25.11 |
| 55 | `CCCN(CCn1c(=O)oc2ccccc21)CC1CC1` | - | 75.44 |
| 56 | `CCc1c(C)sc2ncnc(N3CC[C@@H](N4CCOCC4)[C@H](O)C3)c12` | 50.45 | - |
| 57 | `CO[C@H]1CCN(C2CCOCC2)C[C@@H]1Cc1ccccc1.O=C(O)C(F)(F)F` | 4.727 | - |
| 58 | `CS(=O)(=O)N1CCOCC2(CN(Cc3ccsc3)CCO2)C1.O=C(O)C(F)(F)F` (stereo unspecified) | - | 5.905 |
| 59 | `CC(NC1(CNC(=O)Cn2cccn2)CCOCC1)c1ccccc1` (stereo unspecified) | 19.77 | - |
| 60 | `COCCOc1cccc(CNCc2ccc(-n3cncn3)nc2)c1` | - | -9.668 |
| 61 | `NS(=O)(=O)c1cccnc1Nc1cccc(Cl)c1Cl` | - | 12.32 |
| 62 | `O=S(=O)(Cc1cccc(F)c1)NCC(O)Cc1ccccc1` (stereo unspecified) | -5.417 | - |
| 63 | `Cc1ccc(CN(CCCn2ccnc2)Cc2c(F)cccc2F)s1.O=C(O)CC(O)(CC(=O)O)C(=O)O` | 43.56 | 13.38 |
| 64 | `CCCN(C(=O)c1cccnc1)c1nc2c(s1)CCc1c-2cnn1C` | 41.92 | - |
| 65 | `CSCC(C)(O)CNc1ccccn1` (stereo unspecified) | 11.95 | - |
| 66 | `CCn1cc(-c2cc(C(=O)N3CCOCC3)c3cc(Cl)ccc3n2)cn1` | 52.31 | - |
| 67 | `CC(C)(NC(=O)c1ccc(-c2ccc(F)cc2)s1)C(N)=O` | 6.402 & -3.678 | 3.957 |
| 68 | `CCC(C)Oc1ccc(CNCCc2c[nH]cn2)cc1Cl` (stereo unspecified) | - | 25.25 |
| 69 | `OC(COCc1cccs1)Cn1cc(Br)cn1` (stereo unspecified) | 7.768 & 12.93 | 0.2778 |
| 70 | `CCC[C@@H]1CN(Cc2cc3c(cc2OC)OCCO3)C[C@H]1C(=O)O` | - | -0.3692 & -8.028 |
| 71 | `O=C(NCC1CCC2(CC1)OCCO2)c1ccncc1F` | 16.49 & -2.466 | 6.077 |
| 72 | `CCc1ccccc1CNC(=O)CNC(=O)C(C)(C)C` | -0.3959 | - |
| 73 | `COCCN(Cc1ccoc1)S(=O)(=O)c1ccc(F)c(C)c1` | - | 7.343 |
| 74 | `COc1cccc(C(=O)N2CCOC3(CCCN(C(C)=O)C3)C2)c1` (stereo unspecified) | - | 101.2 & -8.513 |
| 75 | `CN(C)c1cc(CNC(=O)Nc2ccc(C#N)cc2)ccn1` | 16.13 | -0.5137 |
| 76 | `O=C(c1ccc(N2CCCC2)nn1)N1CCCC(n2cccn2)C1` (stereo unspecified) | 6.312 | - |
| 77 | `CC(C)N1CCN(C(=O)c2csc3nc(-c4ccc(Cl)cc4)cn23)CC1` | -5.649 | 23.93 |
| 78 | `Cc1cc(C(=O)NCC(C)N2CCc3ccccc32)no1` (stereo unspecified) | 41.89 | - |

The last 9 entries again:

SMILES	Mtb glucose medium	Mtb cholesterol medium
CCC[C@@H]1CN(Cc2cc3c(cc2OC)OCCO3)C[C@H]1C(=O)O	-	-0.3692 & -8.028
O=C(NCC1CCC2(CC1)OCCO2)c1ccncc1F	16.49 & -2.466	6.077
CCc1ccccc1CNC(=O)CNC(=O)C(C)(C)C	-0.3959	-
COCCN(Cc1ccoc1)S(=O)(=O)c1ccc(F)c(C)c1	-	7.343
COc1cccc(C(=O)N2CCOC3(CCCN(C(C)=O)C3)C2)c1 (stereo unspecified)	-	101.2 & -8.513
CN(C)c1cc(CNC(=O)Nc2ccc(C#N)cc2)ccn1	16.13	-0.5137
O=C(c1ccc(N2CCCC2)nn1)N1CCCC(n2cccn2)C1 (stereo unspecified)	6.312	-
CC(C)N1CCN(C(=O)c2csc3nc(-c4ccc(Cl)cc4)cn23)CC1	-5.649	23.93
Cc1cc(C(=O)NCC(C)N2CCc3ccccc32)no1 (stereo unspecified)	41.89	-

The values are deposited in ChEMBL (CHEMBL3988442, “University of Dundee, Small-Polar-MMV Screening Library” (2021)).